From paper PMC7287781 (Molecules, 2020)

Sequences of proteins named here, by UniProt entry; tags and fusion partners are left off. Residues count along the entry.
UniProt Q15303, 26-1308: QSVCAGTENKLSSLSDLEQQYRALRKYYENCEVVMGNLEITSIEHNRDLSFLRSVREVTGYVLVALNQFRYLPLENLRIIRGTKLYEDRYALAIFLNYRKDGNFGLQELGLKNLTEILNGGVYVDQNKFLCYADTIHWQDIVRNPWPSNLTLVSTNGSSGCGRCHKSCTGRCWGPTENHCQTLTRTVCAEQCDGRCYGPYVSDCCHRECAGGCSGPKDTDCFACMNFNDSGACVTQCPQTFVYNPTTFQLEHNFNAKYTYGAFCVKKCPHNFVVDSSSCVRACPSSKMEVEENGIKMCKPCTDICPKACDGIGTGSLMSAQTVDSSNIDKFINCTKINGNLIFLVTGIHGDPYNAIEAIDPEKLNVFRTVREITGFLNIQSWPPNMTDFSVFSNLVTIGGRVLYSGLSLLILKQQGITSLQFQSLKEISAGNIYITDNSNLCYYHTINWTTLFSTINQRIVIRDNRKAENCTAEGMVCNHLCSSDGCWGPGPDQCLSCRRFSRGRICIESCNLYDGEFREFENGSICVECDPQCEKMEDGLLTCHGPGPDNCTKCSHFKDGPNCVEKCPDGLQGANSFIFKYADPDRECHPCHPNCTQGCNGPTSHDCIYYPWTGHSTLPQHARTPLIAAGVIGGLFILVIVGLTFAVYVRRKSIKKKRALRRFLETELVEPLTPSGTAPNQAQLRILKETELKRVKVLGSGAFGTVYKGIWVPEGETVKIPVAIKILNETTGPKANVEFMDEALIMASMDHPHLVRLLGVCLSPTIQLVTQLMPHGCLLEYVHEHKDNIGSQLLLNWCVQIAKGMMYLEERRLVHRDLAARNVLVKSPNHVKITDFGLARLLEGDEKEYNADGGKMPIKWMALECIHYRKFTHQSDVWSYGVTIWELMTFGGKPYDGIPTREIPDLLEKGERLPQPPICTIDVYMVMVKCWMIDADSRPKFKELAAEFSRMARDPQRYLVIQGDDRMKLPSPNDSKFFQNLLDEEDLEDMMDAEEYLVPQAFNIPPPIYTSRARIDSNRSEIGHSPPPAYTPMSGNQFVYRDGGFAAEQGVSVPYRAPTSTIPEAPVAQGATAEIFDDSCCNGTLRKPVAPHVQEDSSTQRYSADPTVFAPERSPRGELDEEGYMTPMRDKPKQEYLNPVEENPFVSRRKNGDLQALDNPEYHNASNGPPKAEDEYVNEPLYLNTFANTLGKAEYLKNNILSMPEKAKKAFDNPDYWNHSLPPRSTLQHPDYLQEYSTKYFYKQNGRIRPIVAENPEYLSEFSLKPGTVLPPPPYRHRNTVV

Biological target: ErbB4 (Homo sapiens, UniProt Q15303)
Details: 1 µM

CN(C)C/C=C/C(=O)Nc1cc2c(Nc3ccc(F)c(Cl)c3)ncnc2cc1O[C@H]1CCOC1 [BIBW2992]
Inhibition Rate(%) / ErbB4: 84.2
